Anti-infective test results gathered from many reports (values: NIAID ChemDB through PubChem).

Shared fields: tests on isolated targets; organism: Toxoplasma gondii

ICn is the concentration giving n% inhibition.

SMILES	endpoint	strain or isolate	dose	protein	result
NS(=O)(=O)c1nc[nH]c1[N+](=O)[O-]	IC50	RH	-	Phosphoribosyltransferase	>900 µM
S=c1nccc[nH]1	Ki	RH	-	Uracil phosphoribosyltransferase	180 µM
COc1cc(NS(=O)(=O)c2ccc(N)cc2)c2ncccc2c1	IC50	-	-	DHPS	570 µM
CNc1nc2nc[nH]c2c(=O)[nH]1	IC50	RH	-	Phosphoribosyltransferase	>900 µM
CCc1nc(N)nc(N)c1-c1ccc(N2CCCCC2)cc1	IC50	RH	-	DHFR	67.6 µM
S=c1[nH]c(=S)[nH]c(=S)[nH]1	Ki	RH	-	Uracil phosphoribosyltransferase	110 µM
CC1(C)N=C(N)N=C(N)N1c1cccc(CC(=O)Nc2ccc(S(=O)(=O)F)cc2)c1.CCS(=O)(=O)O	IC50	RH	-	DHFR	0.14 µM
CC(C)Cn1c(=O)n(C)c(=O)c2[nH]cnc21	IC50	RH	-	Phosphoribosyltransferase	>900 µM
O=C1CCCC(=O)N1	IC50	RH	-	Uracil phosphoribosyltransferase	>2000 µM
O=c1[nH]c2nc[nH]c(=O)c2[nH]1	IC50	RH	-	Phosphoribosyltransferase	>900 µM
Cn1ccc(=O)[nH]c1=O	inhibition	RH	2000 µM	Uracil phosphoribosyltransferase	<5%
CC1(C)N=C(N)N=C(N)N1c1ccc(F)c(C(F)(F)F)c1	IC50	RH	-	DHFR	0.17 µM
CCCc1c[nH]c(=S)[nH]c1=O	Ki	RH	-	Uracil phosphoribosyltransferase	2100 µM
CN(Cc1cnc2nc(N)nc(N)c2n1)c1ccc(C(=O)N[C@H](CCCCN)C(=O)O)cc1	IC50	RH	-	DHFR	>0.08 µM
Nc1ccc(S(=O)(=O)Nc2cccc(N)c2)cc1	IC50	-	-	DHPS	>360 µM
CN(Cc1cnc2nc(N)nc(N)c2n1)c1ccc(C(=O)N[C@@H](CCC(=O)N[C@@H](CCC(=O)N[C@@H](CCC(=O)N[C@@H](CCC(=O)O)C(=O)O)C(=O)O)C(=O)O)C(=O)O)cc1	IC50	RH	-	DHFR	0.00214 µM
Cc1nc2ccccc2nc1NS(=O)(=O)c1ccc(N)cc1	IC50	-	-	DHPS	1680 µM
O=C(O)c1[nH]c(=O)[nH]c(=O)c1[N+](=O)[O-]	IC50	RH	-	Uracil phosphoribosyltransferase	>2000 µM
CC1CSC(NS(=O)(=O)c2ccc(N)cc2)=N1	IC50	-	-	DHPS	>1000 µM
Nc1ncnc2c1ncn2C1CCCCC1	IC50	RH	-	Phosphoribosyltransferase	>900 µM
Nc1ccnc(=S)[nH]1	IC50	RH	-	Uracil phosphoribosyltransferase	>2000 µM
CC1(C)N=C(N)N=C(N)N1c1ccc(C(C#N)CCCc2ccccc2)cc1	IC50	RH	-	DHFR	0.031 µM
NC(=O)c1cnccn1	IC50	RH	-	Uracil phosphoribosyltransferase	>2000 µM
O=c1ncc2[nH]cnc2[nH]1	Ki	RH	-	Phosphoribosyltransferase	430 µM

Repeating the final 3 entries:

| SMILES | endpoint | strain or isolate | dose | protein | result |
|---|---|---|---|---|---|
| CC1(C)N=C(N)N=C(N)N1c1ccc(C(C#N)CCCc2ccccc2)cc1 | IC50 | RH | - | DHFR | 0.031 µM |
| NC(=O)c1cnccn1 | IC50 | RH | - | Uracil phosphoribosyltransferase | >2000 µM |
| O=c1ncc2[nH]cnc2[nH]1 | Ki | RH | - | Phosphoribosyltransferase | 430 µM |

Blank or dashed fields: not listed here. Percent inhibition refers to the dose given; in toxicity tests it is the harm to the cells. Conditions beyond the fields shown may differ between rows.